Compound potency records, mixed from different reports. Data source: NIAID ChemDB in PubChem.

All rows: tests in culture; organism: HIV-1; read by: p24; endpoint: EC50

ECn: concentration that inhibits the pathogen or its effect by n%. Rows are shuffled and stem from different studies. Blank or dashed fields: not listed here.

structure	changes	strain or isolate	cell line	value
CCCOP(=O)(OCCC)OC[C@H]1O[C@@H](n2cc(C)c(=O)[nH]c2=O)C[C@@H]1O	-	RF	C8166	>100 µM
COc1ccc2c(c1)C1=C(CC2)C(=O)N[C@@H]2CCCC[C@@H]2N1	-	-	OM-10.1	1 µM
CC(C)=CCOc1cc(NC(=S)c2ccoc2C)ccc1Cl	RT-K103N	NL4-3	CEM + CEM-SS	0.1 µM
Cc1ccc(-c2ccc3c(c2)C=C(C(=O)Nc2ccc(C[N+](C)(C)C4CCOCC4)cc2)CCC3)cc1	-	Du174 CLADE C	PBMC	<1 µM
CCc1c(Sc2ccccc2)n(COCc2ccccc2)c(=O)[nH]c1=O	-	A018C	MT-4	0.01 µM
C=C(COC)COC(=O)N[C@@H](Cc1ccccc1)[C@H](O)CN(CC(C)C)S(=O)(=O)c1ccc(NC(C)=O)cc1	-	IIIB	CEM	<0.101 µM
C=C(C)OC(=O)N1c2cc(Cl)ccc2NC(=S)C1(C)C	-	MN	PBL	0.007 µM
C=CCOC(=O)N[C@@H](Cc1ccccc1)[C@H](O)CN(CC(C)C)S(=O)(=O)c1ccc(F)cc1	-	IIIB	CEM	<1.001 µM
O=C(O)C[C@H]1C(=O)O[C@H]2[C@H](OC(=O)c3cc(O)c(O)c(O)c3)[C@@H](OC(=O)c3cc(O)c(O)c4c3[C@H]1[C@H](O)C(=O)O4)[C@H](OC(=O)c1cc(O)c(O)c(O)c1)O[C@@H]2COC(=O)c1cc(O)c(O)c(O)c1	-	IIIB	H9	1 µg/mL
O=C1NCCN(Cc2ccccc2F)c2c1sc1ccc(Cl)cc21	-	-	OM-10.1	<0.002 µM
CC(C)CN(C[C@@H](O)[C@H](Cc1ccccc1)NC(=O)OC(C)(C)C)S(=O)(=O)c1ccccc1F	-	IIIB	CEM	<1.001 µM
CCOP(=O)(OCC)OC[C@H]1O[C@@H](n2cc(C)c(=O)[nH]c2=O)C[C@@H]1N=[N+]=[N-]	-	RF	C8166	>100 µM
CN1CCc2c(c(O)c3n2CCN(Cc2ccc(F)cc2)C3=O)C1=O	-	-	MT-4	<10 µM
COc1ccc2c(c1)C1=C(CC2)C(=O)NCCN1Cc1ccc(Cl)cc1	-	-	OM-10.1	0.5 µM
C=C(C)[C@@H]1CC[C@]2(C(=O)NCCCCCCCC(=O)N[C@@H](CC(C)C)[C@H](O)CC(=O)O)CC[C@]3(C)[C@H](CC[C@@H]4[C@@]5(C)CC[C@H](O)C(C)(C)[C@@H]5CC[C@]43C)[C@@H]12	-	NL4-3	MT-4	0.053 µM
COc1ccc2sc3c(c2c1)SCC(C)(C)/C3=N\O	-	-	OM-10.1	0.5 µM
CC(=O)Nc1ccc(S(=O)(=O)N(CC(C)C)C[C@@H](O)[C@H](Cc2ccccc2)NC(=O)OCc2ccccc2)cc1	-	IIIB	CEM	<1.001 µM
O=C(c1cc2ccccc2[nH]1)N1CCN(c2ncccc2NCC(F)(F)F)CC1	-	D34	PBMC	<10 µM
C[C@@H]1O[C@H]2O[C@H]3[C@@H](OC[C@@H](O)[C@@H]3O)OC(=O)[C@]34CCC(C)(C)C[C@@]3(C)C3=CC[C@@]5(C)[C@@](C)(CC[C@@H]6[C@](C)(CO)[C@@H](O[C@@H]7O[C@H](CO)[C@@H](O)[C@H](O)[C@H]7O[C@@H]7O[C@@H](C(=O)C[C@](C)(O)CC(=O)O[C@@H]1[C@@H](O[C@@H]1OC[C@@H](O)[C@H](O)[C@H]1O)[C@H]2O)[C@H](O)[C@H](O)[C@H]7O)[C@@H](O)C[C@@]65C)[C@]3(C)CC4	-	IIIB	H9	24.1 µg/mL
CC(=O)Nc1cc(S(=O)(=O)N(CC(C)C)C[C@@H](O)[C@H](Cc2ccccc2)NC(=O)OC2CCOC2)ccc1F	-	IIIB	CEM	<0.101 µM
CN1N=C(N)c2cn([C@@H]3O[C@H](COP(=O)(O)O)[C@@H](O)[C@H]3O)c3ncnc1c23	-	IIIB	PBL	>10 µM
CCCCOP(=O)(OCCCC)OC[C@H]1O[C@@H](n2cc(C)c(=O)[nH]c2=O)C[C@@H]1OC(C)=O	-	RF	C8166	>100 µM
Nc1nccc2c1ncn2[C@@H]1O[C@H](CO)[C@@H](O)[C@H]1O	-	18199 unpaired	PBMC	0.908 µM
Nc1nc(NC2CC2)c2ncn([C@H]3C=C[C@@H](CO)C3)c2n1	-	HXB2	C8166	0.9 µM
CC(C)CN1CCn2cnnc2-c2sc3ccccc3c21	-	-	OM-10.1	0.5 µM
C=C(C)[C@@H]1CC[C@]2(C(=O)NCCCCCCCC(=O)N[C@@H](CC(C)C)C(=O)O)CC[C@]3(C)[C@H](CC[C@@H]4[C@@]5(C)CC[C@H](OC(=O)CC(C)(C)C(=O)O)C(C)(C)[C@@H]5CC[C@]43C)[C@@H]12	-	NL4-3	MT-4	0.087 µM
CC(C)CN(C[C@@H](O)[C@H](Cc1ccccc1)NC(=O)OC1CCOC1)S(=O)(=O)c1ccc(Cl)cc1	-	IIIB	CEM	<0.101 µM
O=C(O)C[C@@H]1C(=O)O[C@H]2[C@@H]3OC(=O)c4cc(O)c(O)c(O)c4-c4c(cc(O)c(O)c4O)C(=O)OC[C@H]2O[C@@H](OC(=O)c2cc(O)c(O)c(O)c2)[C@@H]3OC(=O)c2cc(O)c(O)c3c2[C@H]1[C@H](O)C(=O)O3	-	IIIB	H9	1 µg/mL
C=C(C)[C@@H]1CC[C@]2(C(=O)NCC(=O)N[C@@H](CC(C)C)C(=O)O)CC[C@]3(C)[C@H](CC[C@@H]4[C@@]5(C)CC[C@H](OC(=O)CC(C)(C)C(=O)O)C(C)(C)[C@@H]5CC[C@]43C)[C@@H]12	-	NL4-3	MT-4	0.016 µM
C=Cc1c(C)c2cc3[nH]c(cc4nc(cc5nc(cc1[nH]2)C(C)=C5CCC(=O)O)C(CCC(=O)O)=C4C)c(C)c3C=C	-	IIIB	MT-2	1.22 µg/mL
C=C(C)CN1CCN(Cc2ccccc2)C(=O)c2sc3ccc(OC)cc3c21	-	-	OM-10.1	0.9 µM
C=CCOC(=O)N[C@@H](Cc1ccccc1)[C@H](O)CN(CC(C)C)S(=O)(=O)c1ccc(F)c(NC(C)=O)c1	-	IIIB	CEM	<1.001 µM
C=C(C)[C@@H]1CC[C@]2(C(=O)O)CC[C@]3(C)[C@H](CC[C@@H]4[C@@]5(C)CC[C@H](OC(=O)CC(C)(C)C(=O)O)C(C)(C)[C@@H]5CC[C@]43C)[C@@H]12	-	NL4-3	MT-4	0.075 µM
O=c1[nH]cnc2c1ncn2[C@H]1CC[C@@H](CCP(=O)(O)O)O1	-	IIIB	CEM	>200 µM
C=C(C)CN1CCN(C)C(=O)c2sc3ccc(OC)cc3c21	-	-	OM-10.1	<0.08 µM
CCCCCCCCCCCCCCCCCCOC[C@H](CO[C@]1(C(=O)O)C[C@H](OS(=O)(=O)O)[C@@H](NC(C)=O)[C@H]([C@H](OS(=O)(=O)O)[C@@H](COS(=O)(=O)O)OS(=O)(=O)O)O1)OCCCCCCCCCCCCCCCCCC	-	IIIB	H9	2.5 µM
CC(C)Nc1cccnc1N1CCN(C(=O)c2cc3cc(F)ccc3[nH]2)CC1	-	D34	PBMC	0.001 µM
C=C(C)[C@@H]1CC[C@]2(C(=O)NCCCCCCCC(=O)O)CC[C@]3(C)[C@H](CC[C@@H]4[C@@]5(C)CC[C@H](OC(=O)CC(C)(C)C(=O)O)C(C)(C)[C@@H]5CC[C@]43C)[C@@H]12	-	NL4-3	MT-4	0.077 µM
Nc1ncnc2c1ncn2[C@H]1CC[C@@H](CCP(=O)(O)O)O1	-	IIIB	CEM	60 µM
COc1ccc2sc3c(c2c1)N(Cc1cccc([N+](=O)[O-])c1)CCNC3=O	-	-	OM-10.1	<0.04 µM

Repeating the final 3 entries:

C=C(C)[C@@H]1CC[C@]2(C(=O)NCCCCCCCC(=O)O)CC[C@]3(C)[C@H](CC[C@@H]4[C@@]5(C)CC[C@H](OC(=O)CC(C)(C)C(=O)O)C(C)(C)[C@@H]5CC[C@]43C)[C@@H]12 ; strain or isolate: NL4-3 ; cell line: MT-4 ; value: 0.077 µM
Nc1ncnc2c1ncn2[C@H]1CC[C@@H](CCP(=O)(O)O)O1 ; strain or isolate: IIIB ; cell line: CEM ; value: 60 µM
COc1ccc2sc3c(c2c1)N(Cc1cccc([N+](=O)[O-])c1)CCNC3=O ; cell line: OM-10.1 ; value: <0.04 µM